For assay [1], the target named is AVID SARS-CoV-2 S1. Kind of assay: BLI; avid.
Assay [2] addresses Monovalent SARS-CoV-2 S1. Kind of assay: BLI; monovalent.
In assay [3] the target is T1, recombinant prefusion-stabilized SARS-CoV S protein (prefusion S ectodomain) (SARS-CoV, UniProt P59594 14-1195).
Assay [4] has as its target T1, recombinant prefusion-stabilized …. The source holds these as a separate data set.
Assay [5] has as its target SARS-CoV-2 S1. Kind of assay: BLI; avid.
Assay [6] addresses SARS-CoV-2 S1. Briefly: BLI; monovalent.

Where two headings read alike, the source gives them in different places.

B1: ADI-56046 (antibody, V domains shown)
VH: not shown
VL: not shown
With B1, the dissociation constant (Kd) was found to be 0.328 nM in assay [1], 3.31 nM in assay [2] and 1.03 nM in assay [3].

B2: ADI-55689 (antibody, V domains shown)
VH: not shown
VL: not shown
Consider B2, for which the results for the dissociation constant (Kd) in assay [4], in assay [5] and in assay [6] were 0.613 nM, 0.603 nM and 21.2 nM, respectively.

Values taken from US20220153815A1, “Compounds specific to coronavirus s protein and uses thereof” (published 2022).
